Pooled drug test results. Numbers come from NIAID ChemDB, via PubChem.

All rows: tests in culture; agent: Mycobacterium tuberculosis

Lines come from different laboratories, so protocols vary. MIC50, MIC90 and the like: level of inhibition, or share of isolates inhibited. Inhibition is in % at the dose shown (toxicity tests: loss of growth or viability). MIC bound: limit read from a one-dose screen. An empty or dashed field is not shown. ECn: concentration that inhibits the pathogen or its effect by n%.

SMILES	changes	strain	read by	cells	setting	tested at	measure	result
COC(=O)CNC(=O)c1nc(C(C)(C)C)[nH]c1C(C)(C)C		H37Rv					MIC	>6.25 µg/mL
O=c1[nH]c2c([N+](=O)[O-])cccc2c(O)c1N=Nc1ccccc1		H37Rv	resazurin				MIC	<6.25 µg/mL
O=C(Nc1ccc(C(F)(F)F)cc1)c1cc(Cl)ccc1OP(=O)(Oc1ccccc1)Oc1ccccc1		My 331/88			7 d		MIC	2 µM
S=C(NCCNC(=S)[S][Sn]([c]1ccccc1)([c]1ccccc1)[c]1ccccc1)[S][Sn]([c]1ccccc1)([c]1ccccc1)[c]1ccccc1		H37Rv	BACTEC			12.5 µg/mL	inhibition	98%
N#Cc1c(N)[n+]([O-])c2ccc(Cl)cc2[n+]1[O-]		H37Rv					MIC	6.25 µg/mL
CCOC(=O)Nc1cc(NC(C)C(C)c2ccc3c(c2)OCO3)c([N+](=O)[O-])c(N)n1		H37Rv				12.5 µg/mL	inhibition	8%
N/C(=N\N=C\c1ccc(Cl)cc1)c1ccncc1		1481					MIC	64 µg/mL
N#Cc1c(N2CCN(c3ccc([N+](=O)[O-])cc3)CC2)[n+](=O)c2ccc(-c3ccc([N+](=O)[O-])cc3)cc2n1[O-]		H37Rv					MIC	0.78 µg/mL
NNC(=O)c1ccncc1		STB-9102	resazurin				MIC	0.0625 µg/mL
Cc1ccc(C)c(/C=N/N=C(\N)c2ccncc2)c1		H37Rv					MIC	256 µg/mL
Clc1ccc(-n2ncc(C(c3ccccc3)n3ccnc3)c2-c2ccccc2)cc1		ATCC 35837 (ethambutol-resistant)					MIC90	≥100 µM
CCOC(=O)Nc1cc2c(c(N)n1)N=C(c1ccccc1)[C@@H](C)N2		H37Rv					EC50	<12.5 µg/mL
N#C/C(=C\c1ccc(I)cc1)n1nnc2ccccc21		ATCC 27294					MIC50	17 µM
O=C1c2cc(Cl)ccc2OP(=O)(c2ccccc2)N1c1ccc(C(F)(F)F)cc1		7357/1998			21 d		MIC	1 µM
CCn1cc(C(=O)O)c(=O)c2cc(F)c(N3CCN(Cn4c(O)c(N=NC(N)=O)c5ccccc54)CC3)cc21		H37Rv	BACTEC				MIC	>12.5 µg/mL
N/C(=N\N=C\c1ccccc1)c1ccncc1		H37Rv					MIC	16 µg/mL
Nc1nccc2c1ncn2[C@@H]1O[C@H](CO)[C@@H](O)[C@H]1O		H37Rv	BACTEC				MIC	>128 µg/mL
C[C@H]1COc2c(N3CCC(O)(c4ccc(Cl)cc4)CC3)c(F)c([N+](=O)[O-])c3c(=O)c(C(=O)O)cn1c23			agar				MIC99	1.51 µM
CCOC(=O)c1nc(C2CCCC2)[nH]c1C1CCCC1		H37Rv					MIC	>6.25 µg/mL
Fc1ccc(-n2ncc(C(c3ccccc3)n3ccnc3)c2-c2ccccc2)cc1		ATCC 35828 (pyrazinamide-resistant)					MIC50	≥100 µM
COc1cc2c(cc1Cl)[n+]([O-])c(C#N)c(N)[n+]2[O-]		H37Rv					MIC	3.13 µg/mL
N/C(=N\N=C\c1cccc(Br)c1)c1ccncc1		H37Rv					MIC	16 µg/mL
O=C(/C=C/c1ccccc1)Oc1ccc(/C=C2\CCC/C(=C\c3ccc(OC(=O)/C=C/c4ccccc4)cc3)C2=O)cc1		H37Rv					EC50	>12.5 µg/mL
Cc1cc2c(cc1C)[n+](=O)c(C#N)c(Cl)n2[O-]		H37Rv					MIC	1.56 µg/mL
CC1COc2c(N3CCSCC3)c(F)c([N+](=O)[O-])c3c(=O)c(C(=O)O)cn1c23			agar				MIC99	1.91 µM
Cc1ccc2c(O)c(N=Nc3ccccc3Cl)c(=O)[nH]c2c1		H37Rv	resazurin				MIC	>6.25 µg/mL
O=C(Nc1ccc(C(F)(F)F)cc1)c1cc(Cl)ccc1OP(=O)(c1ccccc1)c1ccccc1		234/2005			21 d		MIC	1 µM
CC(C)(C)c1ncc(C(=O)O)[nH]1		H37Rv				6.25 µg/mL	inhibition	0%
Cc1ccc(Nc2nc(NS(=O)(=O)c3cc(C)c(Cl)cc3S)n(C)n2)cc1		H37Rv	resazurin				MIC bound	>6.25 µg/mL
NNC(=O)c1ccncc1	SM-resistant	Clinical isolate BRF 7	resazurin				MIC	0.03 µg/mL
Fc1ccc(C(=S)Nc2ccccc2Cl)cc1		H37Rv				6.25 µg/mL	inhibition	68%
CCOC(=O)Nc1cc2[nH]cnc2c(NC(=O)OCC)n1		H37Rv					EC50	>12.5 µg/mL
Cc1ccc(S(=O)(=O)NNC(=O)c2ccc(-c3ccc[nH]3)[nH]2)cc1		H37Rv	BACTEC				MIC bound	>12.5 µg/mL
CCOC(=O)Nc1cc(=O)c([N+](=O)[O-])c(N)[nH]1		H37Rv					EC50	>12.5 µg/mL
O=c1[nH]c2c([N+](=O)[O-])cccc2c(O)c1N=Nc1ccc(F)cc1		H37Rv	resazurin				MIC	>6.25 µg/mL
COc1cccc2c1C(=O)c1c(O)c3c(c(O)c1C2=O)C[C@@](O)(/C(C)=N/NC(=O)c1ccccc1)CC3O[C@H]1CC(N)C(O)C(C)O1		H37Rv	BACTEC			12.5 µg/mL	inhibition	6%
CN[C@@H]1[C@H](O[C@H]2[C@H](O[C@H]3[C@H](O)[C@@H](O)[C@H](N=C(N)N)[C@@H](O)[C@@H]3N=C(N)N)O[C@@H](C)[C@]2(O)C=O)O[C@@H](CO)[C@H](O)[C@H]1O		ATCC 35837 (ethambutol-resistant)					MIC50	0.1 µM
CCN(CC)CC.NS(=O)(=O)c1ccc(NC(=S)S)cc1		H37Rv	BACTEC				MIC	64 µg/mL
NCCCN1c2ccccc2Sc2ccccc21		XDR-164	resazurin				MIC	32 µg/mL
CCOC(=O)c1cnc(C2CCCCC2)[nH]1		H37Rv				6.25 µg/mL	inhibition	22%
O=C(O)c1cnccn1		1620					MIC	480 µg/mL
CCn1cc(C(=O)O)c(=O)c2cc(F)c(N3CCN(CN4C(=O)C(=O)c5ccccc54)CC3)cc21		H37Rv	BACTEC			12.5 µg/mL	inhibition	95%
O=C1c2cc(Br)ccc2OP(=O)(c2ccccc2)N1c1ccc(C(F)(F)F)cc1		9449/2007			21 d		MIC	1 µM
Clc1ccccc1-c1c(C(c2ccccc2)n2ccnc2)cnn1-c1ccccc1		ATCC 35828 (pyrazinamide-resistant)					MIC50	27.3 µM
COc1ccc(CSC(=S)Nc2ccc(C)c(Br)c2)cc1		H37Rv	BACTEC			12.5 µg/mL	inhibition	47%
CCOC(=O)Nc1cc(NCC(=O)CN(C)c2ccc(C(=O)OC)cc2)c([N+](=O)[O-])c(N)n1		H37Rv					EC50	>12.5 µg/mL
O=[N+]([O-])c1cc(Cl)cc2c1NP(=O)(c1ccccc1)N2		H37Rv	resazurin			6.25 µg/mL	inhibition	-15%
COc1ccc(N=Nc2c(O)c3cc(Cl)ccc3[nH]c2=O)c(C)c1		H37Rv	resazurin				MIC	>6.25 µg/mL
C[C@H]1COc2c(N3CCN(C(=O)c4ccco4)CC3)c(F)cc3c(=O)c(C(=O)O)cn1c23			agar				MIC99	7.09 µM
N#C/C(=C\c1ccccc1C(F)(F)F)n1nnc2ccccc21		ATCC 27294					MIC50	22.4 µM
COc1ccc(/C=N/NC(=O)c2nc(C3C4CC5CC(C4)CC3C5)[nH]c2C2C3CC4CC(C3)CC2C4)cc1		H37Rv				6.25 µg/mL	inhibition	0%
CCn1cc(C(=O)O)c(=O)c2cc(F)c(N3CCN(Cn4c(O)c(N=NC(N)=O)c5cc(Cl)ccc54)CC3)cc21		H37Rv	BACTEC			12.5 µg/mL	inhibition	94%
CC1COc2c(N3CCN(C(c4ccccc4)c4ccc(Cl)cc4)CC3)c(F)c([N+](=O)[O-])c3c(=O)c(C(=O)O)cn1c23			agar				MIC99	2.63 µM
COc1cc(/C=N/N=C(\N)c2ccncc2)cc(OC)c1OC		H37Rv					MIC	>256 µg/mL
Clc1ccc(-c2c(C(c3ccccc3)n3ccnc3)cnn2-c2ccc(Cl)cc2Cl)cc1		ATCC 35828 (pyrazinamide-resistant)					MIC50	73.1 µM
C/C(=N/NC(=S)N1CCC(C)CC1)c1nccnc1C		H37Rv		VERO			MIC	1.6 µg/mL
O=C(Nc1ccccc1)c1ccccc1OP(=O)(Oc1ccccc1)c1ccccc1		My 331/88			14 d		MIC	250 µM
c1ccc(-c2c(C(c3ccccc3)n3ccnc3)cnn2-c2ccccc2)cc1		ATCC 35837 (ethambutol-resistant)					MIC50	33 µM
N/C(=N\N=C\c1cccc(F)c1)c1ccncc1		1054					MIC	64 µg/mL
Cc1cc(=O)n(C)c2ccc([N+](=O)[O-])cc12		H37Rv	BACTEC			12.5 µg/mL	inhibition	28%
Fc1ccc(-c2c(C(c3ccccc3)n3ccnc3)cnn2-c2ccc(F)cc2)cc1		ATCC 35837 (ethambutol-resistant)					MIC90	≥100 µM
N#Cc1nc2ccccc2nc1N1CCN(c2ccc([N+](=O)[O-])cc2)CC1		H37Rv					EC50	>6.25 µg/mL
CC(=O)Nc1nnc(-c2cc(=O)c3cc(Cl)ccc3o2)s1		H37Rv	BACTEC			12.5 µg/mL	inhibition	0%
CCn1cc(C(=O)O)c(=O)c2cc(F)c(N3CCN(Cn4c(O)c(N=NC(N)=O)c5cc(Br)ccc54)CC3)cc21		H37Rv	BACTEC			12.5 µg/mL	inhibition	93%
CN(C)CC1CCC/C(=C\c2ccc(OC(=O)c3ccccc3)cc2)C1=O		H37Rv					EC50	<12.5 µg/mL
CC(=O)c1ccc(N=Nc2c(O)c3cccc(Cl)c3[nH]c2=O)cc1		H37Rv	resazurin				MIC	>6.25 µg/mL
CC(C)(CO)NCC(C)(C)NC(Cc1ccccc1)c1ccccc1.Cl.Cl		H37Rv	BACTEC				MIC	≥12.8 µg/mL
N/C(=N\N=C\c1ccccc1Br)c1ccncc1		1481					MIC	8 µg/mL
Fc1ccccc1-c1c(C(c2ccccc2)n2ccnc2)cnn1-c1ccccc1F		ATCC 35828 (pyrazinamide-resistant)					MIC90	≥100 µM
CC(=O)Nc1ccc(/C=N/NC(N)=S)cc1		Isolate D (drug-resistant)					MBC	30 µg/mL
O=C1CCCC/C1=C\c1ccc(OC(=O)c2ccc(Cl)cc2)cc1		H37Rv				12.5 µg/mL	inhibition	56%
Fc1ccc(-n2ncc(C(c3ccccc3)n3ccnc3)c2-c2ccccc2)c(F)c1		ATCC 35828 (pyrazinamide-resistant)					MIC90	≥100 µM
c1cnc2c(c1)ccc1ncccc12		H37Rv	BACTEC			12.5 µg/mL	inhibition	37%
N#C/C(=C/c1ccccc1[N+](=O)[O-])n1nnc2ccccc21		ATCC 27294					MIC50	>100 µM
CC(C)(C)C1=CC(=O)C(C(C)(C)C)=CC1=O		H37Rv	BACTEC			128 µg/mL	inhibition	99%
O=C(Nc1ccc(Cl)cc1)c1cc(Cl)ccc1OP(=O)(OCc1ccccc1)OCc1ccccc1		My 331/88			14 d		MIC	16 µM
COc1cc2c(cc1OC)C(=O)Cc1ccc3c(c1CN(C)CC2)OCO3		H37Rv	BACTEC				MIC	≥128 µg/mL
Cn1c(=O)c(N=Nc2ccccc2[N+](=O)[O-])c(O)c2ccccc21		H37Rv	resazurin				MIC	<6.25 µg/mL
COc1ccc(C(=O)Oc2ccc(/C=C3\CCCC(CN(C)C)C3=O)cc2)cc1		H37Rv					EC50	<12.5 µg/mL
COC(=O)c1nc2c(N)nc(-c3ccccc3)nc2nc1N		H37Rv	BACTEC				MIC bound	>12.5 µg/mL
CCOC(=O)Nc1cc(N)c([N+](=O)[O-])c(NC(=O)OCC)n1		H37Rv					EC50	>12.5 µg/mL
Cc1nc(C)c([N+](=O)[O-])s1		H37Rv	resazurin				MIC bound	>6.25 µg/mL
C=C(C)/C=C/[C@]12C[C@H](C)[C@H]3CC[C@](C)(NC=O)[C@@H](CC[C@H]1C)[C@@H]32		H37Rv				16 µg/mL	inhibition	30%
COc1ccc(/C(=C\n2ccnc2)C(=O)c2ccc(OC)c(OC)c2)cc1		H37Rv	resazurin			6.25 µg/mL	inhibition	-15%
N#C/C(=C\c1cccc(I)c1)n1nnc2ccccc21		ATCC 27294					MIC50	58.2 µM
COC1=CC(=N/Cl)/C=CC/1=N\Cl		H37Rv	BACTEC				MIC bound	>12.5 µg/mL
O=C(/C=C/c1ccc(Cl)cc1)Oc1ccc(/C=C2\CCCCC2=O)cc1		H37Rv				12.5 µg/mL	inhibition	0%